According to PMC12047801, “Disrupting the OTUD4-USP7 deubiquitinase complex to suppress herpesvirus replication: a novel antiviral strategy” (PLOS Pathogens, 2025):

Test system: KSHV proteins RTA, ORF45, K8α, and ORF57 in SLK.iBAC-GFP cells
Assay: Viral protein levels by immunoblotting, SLK.iBAC-GFP cells
Settings: S2G Fig, 100 μM

With `CC(=O)N[C@@H](Cc1ccc(O)cc1)C(=O)NCC(=O)N[C@@H](CCCNC(=N)N)C(=O)N[C@@H](CCCCN)C(=O)N[C@@H](CCCCN)C(=O)N[C@@H](CCCNC(=N)N)C(=O)N[C@@H](CCCNC(=N)N)C(=O)N[C@@H](CCC(N)=O)C(=O)N[C@@H](CCCNC(=N)N)C(=O)N[C@@H](CCCNC(=N)N)C(=O)N[C@@H](CCCNC(=N)N)C(=O)NCC(=O)NCC(=O)N[C@H](C(=O)N[C@@H](CC(N)=O)C(=O)N[C@@H](CCC(N)=O)C(=O)N[C@@H](CO)C(=O)N[C@@H](C)C(=O)N[C@@H](CO)C(=O)N[C@@H](CCC(N)=O)C(=O)N[C@@H](CO)C(=O)N[C@@H](CO)C(=O)N[C@@H](CC(N)=O)C(N)=O)C(C)C` the “Protein levels of RTA, ORF45, K8α, and ORF57 (in words)” value was “diminished”.
